A mixed list of measured activities; the numbers were collected in NIAID ChemDB.

All rows: growth or infection tests; agent: HIV-1; read by: cytopathic effect; measure: fold resistance

Conditions beyond the fields shown may differ between rows. Fold resistance has wild type as its base. Blank or dashed fields: not listed here.

compound | changes | strain | cells | value
Cc1cn([C@H]2C=C[C@@H](CO)O2)c(=O)[nH]c1=O | RT-T69N K70R Q151M | NI-10.93 (HXB2 RT T69N K70R Q151M) | MT-4 | >24
CC(C)=CCN1Cc2cc(Cl)cc3[nH]c(=S)n(c23)C[C@@H]1C | RT-L100I | IIIB | CEM | 109
Cc1ccnc(N2C(=O)CSC2c2c(Cl)cccc2Cl)n1 | RT-K103N | - | CEM | 559
Cc1cn([C@@H]2O[C@H](CO[Si](C)(C)C(C)(C)C)[C@]3(C(N)=CS(=O)(=O)N3C)[C@H]2O[Si](C)(C)C(C)(C)C)c(=O)n(C(=O)OC(C)(C)C)c1=O | RT-Y181C | - | CEM | >2.85
CC(C)=CCN1Cc2cc(Cl)cc3[nH]c(=O)n(c23)C[C@@H]1C | RT-V106A P225H | Recombinant | MT-4 | 73
O=c1[nH]cnc2c1ncn2[C@H]1CC[C@@H](CO)O1 | RT-T69N K70R Q151M | NI-10.93 (HXB2 RT T69N K70R Q151M) | MT-4 | >4.04
CC[C@H]1C(=O)Nc2ccc(F)cc2N1C(=O)OC(C)C | RT-L100I | NNRTI-resistant | CEM | 20.5
Cc1cn([C@H]2C[C@H](N=[N+]=[N-])[C@@H](CO)O2)c(=O)[nH]c1=O | RT-E138K | - | CEM | 2.28
C=C(C)OC(=O)N1c2cc(Cl)ccc2NC(=S)C1(C)C | RT-V106A | Recombinant | MT-4 | 30
Cc1cn([C@H]2C[C@H](N=[N+]=[N-])[C@@H](CO)O2)c(=O)[nH]c1=O | RT-T139K Y181C Y188D/Y | Q-1 (RT T139K Y181C Y188D/Y) | CEM | 22
CCOCn1c(Cc2ccccc2)c(C(C)C)c(=O)[nH]c1=O | RT-V106A | Recombinant | MT-4 | 25
CC(C)=CCOc1cc(NC(=S)c2ccoc2C)ccc1Cl | RT-K103N | IIIB | CEM | 11.5
Fc1ccc(F)c(C2OCc3nc4ccccc4n32)c1 | RT-E138K | IIIB | CEM | ≥2.42
CC(C)=CCN1Cc2cccc3[nH]c(=S)n(c23)C[C@@H]1C | RT-L100I | R82150 (RT-L100I) | MT-2 | >187.5
CCCCCCCSc1nsc(NC(=O)Nc2ccccc2)n1 | RT A62V 69SS K70R E79K V118I M184V E203K L210W T215Y | NL4-3 | MT-4 | 1.03
Cc1cc(C)nc(N2C(=O)CSC2c2c(Cl)cccc2Cl)n1 | RT-Y188H | - | CEM | 316
Cc1cn([C@@H]2O[C@H](CO[Si](C)(C)C(C)(C)C)[C@]3(C(N)=CS(=O)(=O)N3C)[C@H]2O[Si](C)(C)C(C)(C)C)c(=O)n(C)c1=O | RT-K103N | - | CEM | >100
Fc1cccc(F)c1C1SCc2nc3ccccc3n21 | RT-Y181C | - | CEM | 9.93
Cc1ccnc2c1NC(=O)c1cccnc1N2C1CC1 | RT-Y181C | N119 RT-Y181C NNRTI-resistant | MT-2 | >570
Cc1cn([C@@H]2O[C@H](CO[Si](C)(C)C(C)(C)C)C3(OS(=O)(=O)C=C3N)[C@H]2O[Si](C)(C)C(C)(C)C)c(=O)n(C)c1=O | RT-V106A | NNRTI-resistant | CEM | >180
COc1cc(C)nc(N2C(=O)CSC2c2c(Cl)cccc2Cl)n1 | RT-L100I | - | CEM | 9.3
O=c1[nH]c2ccc(Cl)cc2n1Cc1c(F)cccc1F | RT-K103N | - | CEM | >22.7
Cc1cn([C@@H]2O[C@H](CO[Si](C)(C)C(C)(C)C)C3(OS(=O)(=O)C(I)=C3N)[C@H]2O[Si](C)(C)C(C)(C)C)c(=O)n(C)c1=O | RT-E138K | TSAO-m3T-resistant (RT E138K) | CEM | >40
Cc1ccnc2c1NC(=O)c1cccnc1N2C1CC1 | RT-Y188H | - | CEM | >340.9
Cc1cn([C@@H]2O[C@H](CO[Si](C)(C)C(C)(C)C)C3(OS(=O)(=O)C=C3N)[C@H]2O[Si](C)(C)C(C)(C)C)c(=O)n(C)c1=O | RT-Y181C | IIIB | CEM | 22
Cc1cc(SC2=C(O)C[C@@](CCc3ccc(N)cc3)(C(C)C)OC2=O)c(C(C)(C)C)cc1CO | PR-L10I L19I S37Q M46L I54V R57K L63P V71V V82A L90M | - | CEM | 2
CC1=C(N)C2(OS1(=O)=O)[C@@H](CO[Si](C)(C)C(C)(C)C)O[C@@H](n1cc(C)c(=O)n(C)c1=O)[C@@H]2O[Si](C)(C)C(C)(C)C | RT-E138K | TSAO-m3T-resistant (RT E138K) | CEM | >227

3 of the rows above, restated:

compound,changes,strain,cells,value
CC(C)=CCN1Cc2cccc3[nH]c(=S)n(c23)C[C@@H]1C,RT-L100I,R82150 (RT-L100I),MT-2,>187.5
CC1=C(N)C2(OS1(=O)=O)[C@@H](CO[Si](C)(C)C(C)(C)C)O[C@@H](n1cc(C)c(=O)n(C)c1=O)[C@@H]2O[Si](C)(C)C(C)(C)C,RT-E138K,TSAO-m3T-resistant (RT E138K),CEM,>227
CC[C@H]1C(=O)Nc2ccc(F)cc2N1C(=O)OC(C)C,RT-L100I,NNRTI-resistant,CEM,20.5